The values that follow come from PMC6131760, “4-Phenyl-1,3-thiazole-2-amines as scaffolds for new antileishmanial agents” (The Journal of Venomous Animals and Toxins Including …, 2018).

SMILES strings stand for the structures.

The test system of the first data set is VERO cells. In words: Cytotoxicity assay in Vero cells (MTT). Type of data set: cell-based, African green monkeys. The conditions noted are these: CC50 VERO cells / IC50 L. amazonensis. The procedure: Cytotoxicity was also evaluated using Vero cells, a monkey kidney cell line obtained from the American Type Culture Collection (ATCC CCL-81; Manassas, VA). The cytotoxicity was determined by the 3-(4,5dimethylthiazol- 2-yl)-2,5-diphenyltetrazolium bromide (MTT) method according to a previously described procedure.
In all cases, the CC50 was calculated as described as in the Antileishmanial assay Section.
Selectivity indexes (SI) were calculated by dividing CC50 against each mammalian cell line by the IC50 against L. amazonensis (CC50/IC50).
For the molecule `Cc1ccc(-c2csc(N)n2)cc1` [Compound 2], the SI is listed as 6.11.
In the case of `Nc1nc(-c2ccccc2)cs1` [Compound 1], the SI stood at 0.74.
On the same count and under the same terms, to `CC(C)(C)c1ccc(-c2csc(N)n2)cc1` [Compound 6] belongs 5.69; to `Nc1nc(-c2ccc(C(F)(F)F)cc2)cs1` [Compound 5], 9.59; to `Nc1nc(-c2ccc(Cl)cc2)cs1` [Compound 8], 5.14.
Still for that read-out and setting: to `Nc1nc(-c2ccc(Cl)c(Cl)c2)cs1` [Compound 4] belongs 4.80.

The test system of the next data set is THP1 cells. In words: Cytotoxicity assay in THP-1 cells differentiated into macrophages (PrestoBlue). The conditions noted are these: CC50 THP1 cells / IC50 L. amazonensis. Type of data set: cell-based, human. The procedure:
(§1) The cytotoxicity was measured in L929 and THP1 cell lines using PrestoBlue®Cell Viability Reagent (Thermo Scientific, Invitrogen) as described by Lall et al. with modifications. First, cells were maintained in RPMI 1640 (Gibco) supplemented with 10% fetal bovine serum (FBS) and 1% antibiotics (100 U/mL penicillin, 100 μg/mL streptomycin). Cell cultures were grown and maintained at 37 °C in a humidified incubator with 5% CO2. Then, L929 cells were seeded in 96-wells flat microtiter plate at a concentration of 1 × 10^5cells/mL (100 μL/well). To THP-1 cells, cultures were differentiated into macrophages by adding 50 ng/mL 12-myristate 13-acetate phorbol (PMA) (Calbiochem, San Diego, USA) in RPMI-free FBS. After 24 h of culturing, the adhered cells were washed with PBS and RPMI with 10% FBS were added. […] The plates were incubated for 48 h and, thereafter, 20 μL/well PrestoBlue® was added. The plates were incubated for further 2 h and the fluorescence was read at bottom using 540–570 nm excitation and 580–610 nm emission. The average of the fluorescence values of the control wells (medium plus PrestoBlue®) was subtracted from the fluorescence value of the positive controls (cells, medium, and PrestoBlue®) and from each experimental well (cells, medium, compounds and PrestoBlue®). In all cases, the CC50 was calculated as described as in the Antileishmanial assay Section. Selectivity indexes (SI) were calculated by dividing CC50 against each mammalian cell line by the IC50 against L. amazonensis (CC50/IC50).
Turning to `Cc1ccc(-c2csc(N)n2)cc1` [Compound 2], the SI is recorded as 1.26.
`Nc1nc(-c2ccccc2)cs1` [Compound 1]: the SI is recorded as 0.15.
`CC(C)(C)c1ccc(-c2csc(N)n2)cc1` [Compound 6] yielded an SI of 2.20.
In the case of `Nc1nc(-c2ccc(Cl)cc2)cs1` [Compound 8], the SI turned out to be 0.70.

The next data set has as its system L929 cells. The experiment in a line: Cytotoxicity assay in L929 cells (PrestoBlue). Type of data set: cell-based. The note with it: CC50 L929 cells / IC50 L. amazonensis. The procedure:
as §1
`Cc1ccc(-c2csc(N)n2)cc1` [Compound 2] registered an SI of 1.48.
Still for that read-out and setting: as for `Nc1nc(-c2ccccc2)cs1` [Compound 1], the figure is 0.20.
Molecule `CC(C)(C)c1ccc(-c2csc(N)n2)cc1` [Compound 6] registered an SI of 1.30.
Same read-out and setting: to `Nc1nc(-c2ccc(Cl)cc2)cs1` [Compound 8] belongs 0.99.
